Literature values in paper PMC4410398, “Influence of Drug Resistance Mutations on the Activity of HIV-1 Subtypes A and B Integrases: a Comparative Study” (Acta Naturae, 2015).

How the values were obtained:
[1] = system: HIV-1 subtype B (clone pNL4-3) carrying G118R; design: method as in PMID 24710029; settings: cited from earlier work
[2] = system: HIV-1 subtype CRF02_A/G isolate carrying a G118R substitution in the IN gene; design: method as in PMID 24710029; settings: HIV-1 subtype CRF02_A/G isolate carrying G118R in the IN gene; cited from earlier work

COc1cc2c(cc1Cc1cccc(Cl)c1F)c(=O)c(C(=O)O)cn2[C@H](CO)C(C)C [EVG, elvitegravir]
FC (resistance) [1]: 3.1 | FC (resistance) [2]: > 100
